Measured values from several laboratories, pooled; numbers as filed in NIAID ChemDB.

All rows: target-level tests; organism: HIV-1; target: Protease; read-out: Ki

Blank or dashed fields: not listed here. Conditions beyond the fields shown may differ between rows.

compound | strain | result
COc1ccc(S(=O)(=O)N(CC(O)CN2C(=O)C(C)(CC(C)C)NC[C@@H]2Cc2ccccc2)CC2CCCC2)cc1 |  | 0.13 µM
O=C(CCl)/C(=N\O)c1ccc(Cl)cc1 |  | 6.3 µM
CC(C)(C)OC(=O)N1C2C3(CO)C(c4ccccc4)C4(CO)C1C1(CO)C(c5ccccc5)C2(CO)C3N(C(=O)OC(C)(C)C)C41 |  | 0.01 µM
COc1ccc(S(=O)(=O)N(CC(C)C)C[C@@H](O)[C@H](CCc2ccccc2)NC(=O)[C@@H]2CN(c3ccc(C(C)=O)cc3)C(=O)O2)cc1 |  | 0.000004 µM
CC(O)[C@H](NC(=O)CCCCCCCCCCCCCCC(=O)N[C@@H](CC(N)=O)C(=O)N[C@@H](Cc1ccccc1)C(=O)O)C(=O)N[C@@H](CC1CCCCC1)C(=O)N[C@@H](Cc1ccccc1)C(N)=O |  | 0.69 µM
Cc1cc(CO)ccc1CNC(=O)[C@H]1N(C(=O)[C@@H](O)[C@H](CCc2ccccc2)NC(=O)O[C@H]2CO[C@H]3OCC[C@H]32)CSC1(C)C |  | 0.00031 µM
CC(C)(C)S(=O)(=O)C[C@@H](Cc1cccc2ccccc12)C(=O)NCc1ccc2c(c1)[C@H](O)[C@@H](O)c1cc(CNC(=O)[C@H](Cc3cccc4ccccc34)CS(=O)(=O)C(C)(C)C)ccc1C2=O |  | 2 µM
O=C(N[C@H]1c2ccccc2C[C@H]1O)[C@H](Cc1ccccc1)C[C@H](O)CN1C(=O)[C@H](Cc2ccccc2)C[C@@H]1Cc1ccccc1 |  | >0.5 µM
CCOC(=O)[C@H]1[C@H](O)[C@H](Cc2ccccc2)NC(=O)CN1Cc1ccc(OC)cc1 | IIIB | >12.5 µM
COc1ccc(S(=O)(=O)N(CC(O)CN2C(=O)C(Cc3ccccc3)NC[C@@H]2Cc2ccccc2)CC2CCCC2)cc1 |  | >20 µM
CC(C)C[C@H](NC(=O)CCCCCCCCCCCCCCC(=O)N[C@H](C(=O)N[C@@H](CC(C)C)C(=O)N[C@@H](Cc1ccccc1)C(N)=O)C(C)O)C(=O)N[C@@H](Cc1ccccc1)C(=O)O |  | 0.84 µM
O=c1oc(-c2ccccc2)cc(O)c1SCc1ccccc1 |  | 0.7 µM
O=S1(=O)N(CC2CC2)[C@H](Cc2ccccc2)CC(O)C[C@@H](Cc2ccccc2)N1CC1CC1 |  | 1.5 µM
CC(C)[C@H](NC(=O)c1cc2ccccc2c(Cc2c(O)c(C(=O)N[C@H](C(=O)O)C(C)C)cc3ccccc23)c1O)C(=O)O |  | 15.8 µM
Cc1ccccc1CNC(=O)[C@H]1N(C(=O)[C@@H](O)[C@H](CCc2ccccc2)NC(=O)O[C@H]2CO[C@H]3OCC[C@H]32)CSC1(C)C |  | 0.0000052 µM
COc1ccc(S(=O)(=O)N(Cc2ccco2)C[C@@H](O)[C@H](Cc2ccccc2)NC(=O)O[C@H]2CCOC2)cc1 |  | 0.02 µM
C=CCN1C(=O)N(Cc2ccc(OC)cc2)[C@@H](C(=O)OCC)[C@H](O)[C@@H]1Cc1ccccc1 | IIIB | >12.5 µM
CCC(C)[C@H](NC(=O)[C@H](C(C)C)[C@@H](O)[C@H](O)C(=O)[C@H](CC(C)C)NC(=O)[C@H](Cc1cnc[nH]1)NC(=O)COc1ccccc1)C(=O)NCc1ccccn1 |  | 0.003 µM
Cc1cc(O)c(C)c(C(=O)N[C@@H](Cc2cccc(F)c2)[C@H](O)C(=O)N2CC(F)(F)C(C)(C)[C@H]2C(=O)NCC(C)(C)C)c1 |  | <0.0001 µM
COc1cccc(S(=O)(=O)N(Cc2cccs2)C[C@@H](O)[C@H](CCc2ccccc2)NC(=O)c2cccc(F)c2C)c1 |  | 0.042 µM
COc1ccc(CCOC(=O)[C@H]2[C@H](O)[C@H](Cc3ccccc3)N(Cc3ccc(OC)cc3)C(=O)N2Cc2ccc(OC)cc2)cc1 | IIIB | >12.5 µM
COC(=O)N1C2C3C4N(C(=O)OC)C5C(C1C5(CO)[C@H]3c1ccccc1)[C@@H](c1ccccc1)C24CO |  | 0.075 µM
O=c1oc(-c2ccccc2)cc(O)c1Sc1ccccc1 |  | 1.1 µM
COc1ccc(S(=O)(=O)N(C[C@@H](O)[C@H](Cc2ccccc2)NC(=O)O[C@H]2CCOC2)CC(C)(C)O)cc1 |  | 0.004 µM
CC[C@H](C)[C@H](NC(=O)[C@@H](NCC(O)[C@H](CC(C)C)NC(=O)[C@H](Cc1cnc[nH]1)N(C)C(=O)[C@H](Cc1ccccc1)NC(=O)[C@@H]1CCCN1C(=O)OC(C)(C)C)C(C)C)C(=O)NCc1ccccn1 |  | 0.01 µM
CC(C)CCNC(=O)[C@H](C(C)C)[C@@H](O)[C@H](O)C(=O)[C@H](CC(C)C)NC(=O)[C@H](Cc1cnc[nH]1)NC(=O)COc1ccccc1 |  | 0.35 µM
CC(C)C[C@H](NC(=O)[C@@H]1CC(=O)NC/C=C/CCCOC(=O)N[C@@H](C(C)C)C(=O)N1)[C@@H](O)C[C@@H](C)C(=O)N[C@H](C(=O)NOCc1ccccc1)C(C)C |  | 0.014 µM
CC(C)C[C@H](NC(=O)CCCCCCCCCCCCCCC(=O)N[C@@H](CC(N)=O)C(=O)N[C@@H](Cc1ccccc1)C(=O)O)C(=O)N[C@@H](CC(C)C)C(=O)N[C@@H](Cc1ccccc1)C(N)=O |  | 0.37 µM
COc1ccc(CN[C@H]2C(=O)N[C@@H](Cc3ccccc3)[C@H]2O)cc1 | IIIB | >12.5 µM
CC(C)[C@H](NC(=O)[C@H](OCc1ccccc1)[C@H](O)[C@@H](O)[C@@H](OCc1ccccc1)C(=O)N[C@H]1c2ccccc2C[C@H]1O)C(=O)NCCF |  | 0.001 µM
CC(C)C[C@H](NC(=O)[C@@H](NC(=O)CCCCCCCCCCCCCCC(=O)N[C@@H](CC(N)=O)C(=O)N[C@@H](Cc1ccccc1)C(=O)O)C(C)O)C(=O)N[C@@H](Cc1ccc(-c2ccccc2)cc1)C(N)=O |  | 0.228 µM
COC(=O)CC1NC[C@H](Cc2ccccc2)N(CC(O)CN(CC2CCCC2)S(=O)(=O)c2ccc(OC)cc2)C1=O |  | >20 µM
CC(C)C[C@H](NC(=O)[C@@H](NC(=O)CCCCCCCCCCCCCCC(=O)N[C@@H](CC(N)=O)C(=O)N[C@@H](Cc1ccccc1)C(=O)O)C(C)O)C(=O)N[C@@H](Cc1ccc(C(=O)c2ccccc2)cc1)C(N)=O |  | 0.495 µM
Cc1ccccc1CNC(=O)C1N(C(=O)[C@@H](O)[C@H](Cc2cccc(F)c2)NC(=O)c2cccc(O)c2C)CC(F)(F)C1(C)C |  | <0.0001 µM
CCCCCN(C[C@@H](O)[C@H](CCc1ccccc1)NC(=O)[C@H](C)NC(C)=O)S(=O)(=O)c1ccc2ncsc2c1 |  | 0.000002 µM
CC[C@H](C)[C@H](NC(=O)[C@@H](NC(=O)CCCCCCCCCCCCCCC(=O)N[C@@H](CC(N)=O)C(=O)N[C@@H](Cc1ccccc1)C(=O)O)C(C)O)C(=O)N[C@@H](Cc1ccccc1)C(N)=O |  | 0.5 µM
Cc1ccccc1CNC(=O)[C@H]1N(C(=O)[C@@H](O)[C@H](CCc2ccccc2)NC(=O)O[C@@H]2CCOCOC2)CSC1(C)C |  | 0.00078 µM
CC(C)C[C@H](NC(=O)[C@@H](NC(=O)CCCCCCCCCCCCCCC(=O)N[C@@H](CC(N)=O)C(=O)N[C@@H](Cc1ccccc1)C(=O)O)C(C)O)C(=O)N[C@@H](Cc1cc(I)c(Oc2cc(I)c(O)c(I)c2)c(I)c1)C(N)=O |  | 0.071 µM
O=C(N[C@H](Cc1ccc(O)c(-c2cc(C[C@@H](NC(=O)OCc3ccccc3)C(=O)O)ccc2O)c1)C(=O)O)OCc1ccccc1 |  | 6.8 µM
COc1ccc(S(=O)(=O)N(CC(O)CN2C(=O)C3(CCCCC3)NC[C@@H]2Cc2ccccc2)CC2CCCC2)cc1 |  | 0.0017 µM
Cc1ccccc1CNC(=O)[C@H]1N(C(=O)[C@@H](O)[C@H](CCc2ccccc2)NC(=O)OC2C[C@@H]3OCO[C@@H]3C2)CSC1(C)C |  | 0.00065 µM

3 of the rows above, restated:

compound | strain | result
Cc1cc(CO)ccc1CNC(=O)[C@H]1N(C(=O)[C@@H](O)[C@H](CCc2ccccc2)NC(=O)O[C@H]2CO[C@H]3OCC[C@H]32)CSC1(C)C |  | 0.00031 µM
O=C(N[C@H](Cc1ccc(O)c(-c2cc(C[C@@H](NC(=O)OCc3ccccc3)C(=O)O)ccc2O)c1)C(=O)O)OCc1ccccc1 |  | 6.8 µM
COC(=O)N1C2C3C4N(C(=O)OC)C5C(C1C5(CO)[C@H]3c1ccccc1)[C@@H](c1ccccc1)C24CO |  | 0.075 µM